This is a selection; strong and weak results do not stand in their true shares. Some salts and complexes are drawn in separate pieces, as the source files them; their charges need not balance. Active and inactive are the calls of the source. Cut-off read from the data, not from the text of the source: active = inhibition above about 52%; inactive = the rest.
Assay: inhibition of PrP 5' UTR reporter expression (AID 488862); note: 0 = median of the neutral control wells
Conditions: cell-based PrP 5' UTR mRNA reporter, plate reader; hits give high values; concentration not given here

SMILES	inhibition
NS(=O)(=O)c1cccc(NC(=O)COC(=O)C(O)(c2ccccc2)c2ccccc2)c1	inactive: -10.4%
O=P1(Nc2ccc(Br)cn2)COc2ccccc2OC1	inactive: 0.369%
O=[As](O)(c1cccs1)c1cccs1	inactive: -16.9%
Cc1ccc(OCC(=O)OC2CN3CCC2CC3)cc1 (configuration not stated)	inactive: -23.8%
O=P1(Nc2ncccn2)COc2ccccc2OC1	inactive: -9.71%
CN1CCCCC1COC(=O)C1(O)c2ccccc2CCc2ccccc21 (configuration not stated)	inactive: -0.628%
COc1ccccc1OP(C)(=O)Nc1c(C)cccc1C (configuration not stated)	inactive: -6.24%
O=[N+]([O-])c1cc([N+](=O)[O-])c(Nc2nnnn2CCO)c([N+](=O)[O-])c1	inactive: -6.86%
CC1=C2N=C(C=C3N=C(C(C)=C4[N-][C@@](C)([C@@H]5N=C1[C@](C)(CCC(=O)NC[C@@H](C)OP(=O)([O-])O[C@H]1[C@@H](O)[C@@H](n6cnc7cc(C)c(C)cc76)O[C@@H]1CO)[C@H]5CC(N)=O)[C@@](C)(CC(N)=O)[C@@H]4CCC(N)=O)[C@@](C)(CC(N)=O)[C@@H]3CCC(N)=O)C(C)(C)[C@@H]2CCC(N)=O.[C-]#N.[Co+3]	inactive: -28.9%
CN(C)C1(CNC(=O)c2ccc(S(C)(=O)=O)cc2)CCCCC1	inactive: -10.2%
CCOC(=O)C(CC)C1=NC(C)(C)Cc2ccccc21.O=[N+]([O-])c1cc([N+](=O)[O-])c(O)c([N+](=O)[O-])c1 (configuration not stated)	inactive: 6.95%
O=C(/C=C/c1ccccc1)OC1CN2CCC1CC2 (configuration not stated)	inactive: -31.9%
CCCC1OP(=O)(Nc2ccccc2)OCC1CC (configuration not stated)	inactive: -10.7%
Cc1nn(-c2ccccc2)c2c1P(=O)(N1CCOCC1)N(C)C(c1ccccc1)=N2 (configuration not stated)	inactive: -31.2%
Cc1ccc(C(=O)OC2CN3CCC2CC3)cc1 (configuration not stated)	inactive: -10.9%
CC1CCC(C(C)C)C(OP(=O)(Nc2ccccn2)c2ccccc2)C1 (configuration not stated)	inactive: 3.2%
COc1cc(C2NCCC3(OCCO3)C2(C)C)cc(OC)c1OC.O=[N+]([O-])c1cc([N+](=O)[O-])c(O)c([N+](=O)[O-])c1 (configuration not stated)	inactive: -12.3%
CN(C(=O)Cc1ccc(Cl)c(Cl)c1)[C@@H]1CCCC[C@H]1N1CCCC1	inactive: -14.7%
CC(C)/C=N\N=C(\N)N[N+](=O)[O-]	inactive: -8.41%
Cc1nc2ccc3ccccc3c2s1.O=[N+]([O-])c1cc([N+](=O)[O-])c(O)c([N+](=O)[O-])c1	inactive: -19%
CC1(CBr)Cn2c(nc3ccccc3c2=O)S1 (configuration not stated)	inactive: -3.44%
O=[N+]([O-])c1cc([N+](=O)[O-])c(-c2cnn(-c3ccccc3)c2)c([N+](=O)[O-])c1	inactive: -24.3%

SMILES	inhibition
COc1ccccc1CNC(=O)COC(=O)C(O)(c1ccccc1)c1ccccc1	inactive: -24.5%
Clc1n[nH]nc1-c1nn[nH][15n]1	inactive: -23%
CC(C)(C)C(=O)NC(Sc1ncccn1)C(Cl)(Cl)Cl (configuration not stated)	inactive: -3.76%
CCC1=CC2Cc3nc4ccc(Cl)cc4c(N)c3C(C1)C2 (configuration not stated)	inactive: 10.4%
O=P1(Nc2ccccn2)COc2ccccc2OC1	inactive: 5.25%
CCOP(=O)(NC(=NC(C)c1ccccc1)NC(C)c1ccccc1)OCC (configuration not stated)	inactive: -21.2%
O=[N+]([O-])c1cc([N+](=O)[O-])c(-n2nnc3ccccc32)c([N+](=O)[O-])c1	inactive: -9.58%
CCOP(=O)(Nc1ccc(C)cn1)OCC	inactive: -31.6%
Cc1ccccc1NP(C)(=O)Nc1ccccc1C	inactive: -23.7%
CP(=O)(Nc1ccc2c(c1)OCCO2)Oc1ccccc1 (configuration not stated)	inactive: -17.1%
c1nnnn1CCn1cnnn1	inactive: -14.2%
CCOP(C)(=S)SCC(=O)NC(C)(CC)C(=O)O (configuration not stated)	inactive: -14%
O=P(Nc1nccs1)(c1ccccc1)c1ccccc1	inactive: -3.99%
CC(C)C(=O)NC(Sc1ccccc1)C(Cl)(Cl)Cl (configuration not stated)	inactive: -8.49%
CP(=O)(Nc1ccc(SC(F)(F)F)cc1)Oc1ccc(F)cc1 (configuration not stated)	inactive: -6.88%
O=C(OC1CN2CCC1CC2)c1cccc(Cl)c1 (configuration not stated)	inactive: -62.3%
Cc1c(C(c2ccc3c(c2)OCO3)c2c(C)n(C)n(-c3ccccc3)c2=O)c(=O)n(-c2ccccc2)n1C.O=[N+]([O-])c1cc([N+](=O)[O-])c(O)c([N+](=O)[O-])c1	inactive: -5.37%
Nc1ccc([As](=O)(O)c2ccc([N+](=O)[O-])cc2)cc1	inactive: -11.6%
C(Cc1nn[nH]n1)Cc1nn[nH]n1	inactive: -2.17%
O=[As](O)(c1ccccc1)c1ccc(O)cc1	inactive: -5.47%
O=[N+]([O-])c1cc([N+](=O)[O-])c(NCC2CCS(=O)(=O)C2)c([N+](=O)[O-])c1 (configuration not stated)	inactive: -30.3%
Cc1cc(-c2cccc3ccccc23)c(C)cn1.O=[N+]([O-])c1cc([N+](=O)[O-])c(O)c([N+](=O)[O-])c1	inactive: -15.6%

SMILES	inhibition
O=[N+]([O-])c1ncn(CCn2cnc([N+](=O)[O-])n2)n1	inactive: -3.73%
CC(=O)NC(SC(=S)N(C)C)C(Cl)(Cl)Cl (configuration not stated)	inactive: 37.8%
O=[N+]([O-])c1ccc(OP2(=O)COCCO2)cc1 (configuration not stated)	inactive: -7.44%
O=[N+]([O-])c1ccc(O)c(/C=N/Nc2ccc([N+](=O)[O-])cc2[N+](=O)[O-])c1	inactive: 9.21%
COc1ccc(NP(C)(=O)Oc2ccccc2OC)cc1 (configuration not stated)	inactive: -26.7%
O=P(Nc1nc2ccccc2s1)(c1ccccc1)c1ccccc1	inactive: -36.3%
CN(C)CCOC(=O)C(O)(c1ccccc1)C1CCCCC1 (configuration not stated)	inactive: -7.38%
C[C@H]1OP(=O)(Oc2ccccc2)[C@H](O)[C@H](O)[C@H]1N=[N+]=[N-] (some centres not stated)	inactive: -31%
CN(C)C1(CNC(=O)c2ccc(Cl)c(S(N)(=O)=O)c2)CCCCC1	inactive: -20.3%
O=P(Nc1ccccn1)(c1ccc(Br)cc1)c1ccc(Br)cc1	inactive: -8.38%
COc1ccc(OP(C)(=O)Nc2cccc(Br)c2)cc1 (configuration not stated)	inactive: -19.4%
COc1ccc(N)c([N+](=O)[O-])c1[N+](=O)[O-]	inactive: -16.5%
Cc1ccccc1OP(=O)(Nc1ccccn1)Oc1ccccc1C	inactive: -29.5%
CC(NC(=O)COC(=O)C(O)(c1ccccc1)c1ccccc1)c1ccccc1 (configuration not stated)	inactive: -8.97%
CN(C)C(=O)Oc1noc2ccccc12	inactive: -7.66%
O=c1c2cc([N+](=O)[O-])ccc2[nH]c2c([N+](=O)[O-])cc([N+](=O)[O-])cc12	inactive: -1.01%
CCCCCOc1ccc(NP(C)(=O)Oc2ccc(Cl)cc2Cl)cc1 (configuration not stated)	inactive: -43.9%
O=[N+]([O-])c1cc([N+](=O)[O-])c(OC2CCCCC2O)c([N+](=O)[O-])c1 (configuration not stated)	inactive: -15.5%
CP(=O)(Nc1ccccc1)Oc1ccc(F)cc1 (configuration not stated)	inactive: -5.2%
O=C(OC1CN2CCC1CC2)c1ccccc1 (configuration not stated)	inactive: -43.2%
CCC(=O)N1C2C3N(C(=O)CC)C1C1N(C(=O)CC)C(C(N1C(=O)CC)N3C(=O)CC)N2C(=O)CC	inactive: 5.34%
CCN(CC)CCCOC(=O)C(O)(c1ccccc1)C1CCCCC1 (configuration not stated)	inactive: -13.7%

SMILES	inhibition
COC(=O)c1cc2c(s1)N=C(c1ccccc1)N(C)P2(=O)N1CCOCC1 (configuration not stated)	inactive: -14.4%
Cc1c([N+](=O)[O-])cc([N+](=O)[O-])c(Br)c1[N+](=O)[O-]	inactive: -9.31%
Cc1ccc(OP(=O)(Nc2ccccn2)Oc2ccc(C)cc2)cc1	inactive: -22.4%
CC(=O)NC(SC(=S)N(CC(C)C)CC(C)C)C(Cl)(Cl)Cl (configuration not stated)	inactive: 7.96%
COc1ccc(OP(C)(=O)Nc2ccc(SC(F)(F)F)cc2)cc1 (configuration not stated)	inactive: -22.8%
O=P1(N(CCCl)CCCl)OCCC2CCCCN21 (configuration not stated)	inactive: -10.1%
CCOC(=O)c1ccc(NP(C)(=O)Oc2ccc(F)cc2)cc1 (configuration not stated)	inactive: -24.3%
c1ccc(-c2nn[nH]n2)c(-c2nn[nH]n2)c1	inactive: -12.4%
Cc1ccc(NP(=O)(Oc2cccc(C)c2)Oc2cccc(C)c2)nc1	inactive: -9.38%
O=C(NC1CCS(=O)(=O)C1)NP(=S)(Oc1ccccc1)Oc1ccccc1 (configuration not stated)	inactive: -49.5%
CCNC(=S)/N=C(\N)N[N+](=O)[O-]	inactive: -24%
COc1ccc2c(c1O)-c1c(O)c(OC)cc3c1[C@H](C2)[N+](C)(C)CC3.O=[N+]([O-])c1cc([N+](=O)[O-])c([O-])c([N+](=O)[O-])c1[O-]	inactive: -23.4%
CC(=O)Nc1ccc([As](=O)(O)O)c(O)c1	inactive: -27.5%
CC(=O)Nc1ccc(Oc2c([N+](=O)[O-])cc([N+](=O)[O-])cc2[N+](=O)[O-])cc1	inactive: -23%
O=C(OCCN1CCN(CCOCc2ccccc2)CC1)C(O)(c1ccccc1)c1ccccc1	inactive: -1.17%
Cc1ccccc1CN(C)C(=O)COC(=O)C(O)(c1ccccc1)c1ccccc1	inactive: -16%
C[C@@H]1C=CCP(=O)(Oc2ccccc2)O1 (some centres not stated)	inactive: -24.5%
C[C@H]1OP(=O)(Oc2ccccc2)C[C@@H]2O[C@@H]21 (some centres not stated)	inactive: -9.43%
N#C/C(=C\c1ccc(N(CCBr)CCBr)cc1)C(N)=O	inactive: 12.5%
CC(=O)c1ccc(N2CC2c2ccncc2)cc1 (configuration not stated)	inactive: -17.7%
O=C(OC1CN2CCC1CC2)c1ccc([N+](=O)[O-])cc1 (configuration not stated)	inactive: -2.19%
